Data published in patent publication US20050191735A1, “Oxidoreductase” (priority 2003, published 2005).

Test system: recombinant Lactobacillus reuteri oxidoreductase
Assay: ee determination for selected substrates by GC
Conditions: 24 h, 1 to 2 units of oxidoreductase

| SMILES | Stereoselectivity (enantiomer formed) | Stereoselectivity (percent) [%] |
| --- | --- | --- |
| CCCCCCC(C)=O [2-Octanone] | Racemate | 50 |
| COC(=O)CCCCC(=O)CC(=O)OC [Dimethyl-3-oxo-1,8-octanedioic acid] | Racemate | 50 |
| CCOC(=O)C(=O)CCc1ccccc1 [Ethyl 2-oxo-4-phenyl-butyrate] | – | 98 |
| CCOC(=O)CCCCC(=O)CCCl [Ethyl 8-chloro-6-oxooctanoic acid] | – | 94 |
| CCOC(=O)C(C)=O [Ethyl pyruvate] | – | 99 |
